Fold change is the IC50 on the isolate divided by the IC50 on a reference virus; 1 = unchanged, higher = more resistant. Changes are given against the subtype B consensus. No active / inactive call. The values were gathered from many studies (numbered anew) with different assays, which the source does not name. Most viruses are clinical isolates; some are laboratory strains or clones with known resistance changes. Isolates with mixed residues are left out; stretches that were not sequenced show no change. Round top values that many isolates share are read here as limits; other very high values and 0.1 may be limits too. The protease changes I3V and N37S, insertions and deletions cannot be read from the source.
How the values were obtained:
Experiment in all cases: fold change of IC50 against reference virus; higher = more resistant; Cell-culture drug susceptibility tests of virus bearing the protease of each isolate, gathered from many studies.
[1] = compound: CC(C)(C)NC(=O)[C@@H]1C[C@@H]2CCCC[C@@H]2CN1C[C@@H](O)[C@H](Cc1ccccc1)NC(=O)[C@H](CC(N)=O)NC(=O)c1ccc2ccccc2n1 [saquinavir]
[2] = compound: Cc1c(O)cccc1C(=O)N[C@@H](CSc1ccccc1)[C@H](O)CN1C[C@H]2CCCC[C@H]2C[C@H]1C(=O)NC(C)(C)C [nelfinavir]
[3] = compound: CC(C)(C)NC(=O)[C@@H]1CN(Cc2cccnc2)CCN1C[C@@H](O)C[C@@H](Cc1ccccc1)C(=O)N[C@H]1c2ccccc2C[C@H]1O [indinavir]
[4] = compound: CC(C)c1nc(CN(C)C(=O)N[C@H](C(=O)N[C@@H](Cc2ccccc2)C[C@H](O)[C@H](Cc2ccccc2)NC(=O)OCc2cncs2)C(C)C)cs1 [ritonavir]

HIV-1 isolate 113 (protease changes: M36I R57K I62V L63P E65D, study 68)
fold change of IC50 against reference virus [1]: 1 | fold change of IC50 against reference virus [2]: 1

HIV-1 isolate 211 (protease changes: I15V L24I E35D M36I N37D R41K F53L I54V L63P A71T V82A R87K, study 68)
fold change of IC50 against reference virus [1]: 13 | fold change of IC50 against reference virus [2]: 22

HIV-1 isolate 223 (protease changes: L10I M46I G73T V77I L90M, study 82)
fold change of IC50 against reference virus [1]: 4.4 | fold change of IC50 against reference virus [3]: 15.8 | fold change of IC50 against reference virus [2]: 37

HIV-1 isolate 256 (protease changes: M46I R57G I84C, study 5)
fold change of IC50 against reference virus [4]: 6

HIV-1 isolate 356 (protease changes: L10I R41K M46I I64V G73T V77I L90M I93L, study 129)
fold change of IC50 against reference virus [1]: 5 | fold change of IC50 against reference virus [2]: 37

HIV-1 isolate 391 (protease changes: R57G L90M, study 133)
fold change of IC50 against reference virus [2]: 5

HIV-1 isolate 393 (protease changes: L10I L24I M46L I54V L63P A71V V82A L90M, study 82)
fold change of IC50 against reference virus [1]: 4.8 | fold change of IC50 against reference virus [2]: 27.4

HIV-1 isolate 399 (protease changes: R8K R57G V82I, study 133)
fold change of IC50 against reference virus [2]: 4

HIV-1 isolate 424 (protease changes: I64V, study 89)
fold change of IC50 against reference virus [2]: 1

HIV-1 isolate 429 (protease changes: L10I K20I M36I I54V L63P A71V V82T, study 82)
fold change of IC50 against reference virus [1]: 4.8 | fold change of IC50 against reference virus [3]: 25.2 | fold change of IC50 against reference virus [2]: 23

HIV-1 isolate 435 (protease changes: T12S R41K L63P I72V V77I L90M I93L, study 137)
fold change of IC50 against reference virus [1]: 7 | fold change of IC50 against reference virus [3]: 4 | fold change of IC50 against reference virus [2]: 13

HIV-1 isolate 463 (protease changes: L10I M46I I54V L63Q V82A, study 82)
fold change of IC50 against reference virus [1]: 0.7 | fold change of IC50 against reference virus [3]: 2.5 | fold change of IC50 against reference virus [2]: 3.7

HIV-1 isolate 512 (protease changes: R57G, study 5)
fold change of IC50 against reference virus [4]: 1

HIV-1 isolate 542 (protease changes: T12P K14R L24I M46I I54V L63A I64V V82A, study 129)
fold change of IC50 against reference virus [1]: 1 | fold change of IC50 against reference virus [2]: 7

HIV-1 isolate 547 (protease changes: I13V G16E N37C I62V L63S I64M, study 68)
fold change of IC50 against reference virus [1]: 1 | fold change of IC50 against reference virus [2]: 1

HIV-1 isolate 586 (protease changes: D30N R57G A71V, study 133)
fold change of IC50 against reference virus [2]: 7

HIV-1 isolate 591 (protease changes: I15V L24I E35D N37E R41K I54V I62V L63P A71T V82A, study 68)
fold change of IC50 against reference virus [1]: 3 | fold change of IC50 against reference virus [2]: 9

HIV-1 isolate 596 (protease changes: L10I V11I I13V G16E E35D L63T I64V C67Y V77I V82F, study 129)
fold change of IC50 against reference virus [1]: 1 | fold change of IC50 against reference virus [2]: 4

HIV-1 isolate 664 (protease changes: L10I L24I M46L I54V L63P A71V V82A, study 82)
fold change of IC50 against reference virus [1]: 7.2 | fold change of IC50 against reference virus [3]: 34.5 | fold change of IC50 against reference virus [2]: 49.8

HIV-1 isolate 685 (protease changes: L10I G48V I54T L63H A71V V77I V82A, study 80)
fold change of IC50 against reference virus [1]: 90 | fold change of IC50 against reference virus [3]: 86 | fold change of IC50 against reference virus [2]: 30

HIV-1 isolate 689 (protease changes: M46F R57G, study 133)
fold change of IC50 against reference virus [2]: 1

HIV-1 isolate 738 (protease changes: M46I R57G I84V, study 133)
fold change of IC50 against reference virus [2]: 5

HIV-1 isolate 822 (protease changes: L10I L63P A71T I72E V77I I93L, study 137)
fold change of IC50 against reference virus [1]: 2 | fold change of IC50 against reference virus [3]: 1 | fold change of IC50 against reference virus [2]: 3

HIV-1 isolate 926 (protease changes: L10I I15V M36I G48V I54V I62V V82A, study 137)
fold change of IC50 against reference virus [1]: 40 | fold change of IC50 against reference virus [3]: 6 | fold change of IC50 against reference virus [2]: 30

HIV-1 isolate 969 (protease changes: L10I K14R I15V N37D F53L A71V G73S V77I L90M, study 137)
fold change of IC50 against reference virus [1]: 19 | fold change of IC50 against reference virus [3]: 10 | fold change of IC50 against reference virus [2]: 26

HIV-1 isolate 1035 (protease changes: L10I M46I L63P A71V L90M, study 82)
fold change of IC50 against reference virus [1]: 1.5 | fold change of IC50 against reference virus [3]: 9.6 | fold change of IC50 against reference virus [2]: 3.9

HIV-1 isolate 1059 (protease changes: R57G V82A, study 133)
fold change of IC50 against reference virus [2]: 1

HIV-1 isolate 1099 (protease changes: L10I E35D R41K I62V L63P A71V I84V L90M I93L, study 137)
fold change of IC50 against reference virus [1]: 11 | fold change of IC50 against reference virus [3]: 1 | fold change of IC50 against reference virus [2]: 7

HIV-1 isolate 1114 (protease changes: R57G, study 133)
fold change of IC50 against reference virus [2]: 1

HIV-1 isolate 1138 (protease changes: L10F R57G I84V, study 133)
fold change of IC50 against reference virus [2]: 3

HIV-1 isolate 1170 (protease changes: L10I L24I M46I I54V L63P V82A, study 82)
fold change of IC50 against reference virus [1]: 3.8 | fold change of IC50 against reference virus [3]: 25.8 | fold change of IC50 against reference virus [2]: 33.3

HIV-1 isolate 1175 (protease changes: L10I L63T V77I V82F, study 82)
fold change of IC50 against reference virus [1]: 0.3 | fold change of IC50 against reference virus [3]: 2.4 | fold change of IC50 against reference virus [2]: 4.1

HIV-1 isolate 1192 (protease changes: L10F G48V R57G, study 133)
fold change of IC50 against reference virus [2]: 3

HIV-1 isolate 1232 (protease changes: M46I R57G L63P I84V, study 133)
fold change of IC50 against reference virus [2]: 30

HIV-1 isolate 1274 (protease changes: R57G I84V, study 133)
fold change of IC50 against reference virus [2]: 5

HIV-1 isolate 1281 (protease changes: G48V R57G, study 133)
fold change of IC50 against reference virus [2]: 3

HIV-1 isolate 1282 (protease changes: K20I L63P V77I I93L, study 129)
fold change of IC50 against reference virus [1]: 1 | fold change of IC50 against reference virus [2]: 2

HIV-1 isolate 1285 (protease changes: M46L R57G, study 133)
fold change of IC50 against reference virus [2]: 1

HIV-1 isolate 1288 (protease changes: L63P, study 129)
fold change of IC50 against reference virus [1]: 1 | fold change of IC50 against reference virus [2]: 1

HIV-1 isolate 1329 (protease changes: L10F R57G, study 133)
fold change of IC50 against reference virus [2]: 2

HIV-1 isolate 1340 (protease changes: L10I K20R E35D M36I N37D I54V D60E L63P A71V V77G V82A, study 68)
fold change of IC50 against reference virus [1]: 9 | fold change of IC50 against reference virus [2]: 10

HIV-1 isolate 1362 (protease changes: I54V L63P V82A, study 82)
fold change of IC50 against reference virus [1]: 1.4 | fold change of IC50 against reference virus [3]: 20 | fold change of IC50 against reference virus [2]: 16.8

HIV-1 isolate 1387 (protease changes: M46F R57G V82A, study 133)
fold change of IC50 against reference virus [2]: 1

HIV-1 isolate 1515 (protease changes: L10I I15V M36I G48V I54V I62V, study 137)
fold change of IC50 against reference virus [1]: 30 | fold change of IC50 against reference virus [3]: 5 | fold change of IC50 against reference virus [2]: 9

HIV-1 isolate 1521 (protease changes: T12P L24I M46I I54V L63A V82A, study 82)
fold change of IC50 against reference virus [1]: 0.7 | fold change of IC50 against reference virus [3]: 4.5 | fold change of IC50 against reference virus [2]: 6.4

HIV-1 isolate 1585 (protease changes: R8K M46I R57G, study 133)
fold change of IC50 against reference virus [2]: 5

HIV-1 isolate 1590 (protease changes: M46I R57G, study 133)
fold change of IC50 against reference virus [2]: 1

HIV-1 isolate 1594 (protease changes: L10I I13V I15V I62V A71T I93L, study 89)
fold change of IC50 against reference virus [2]: 1

HIV-1 isolate 1616 (protease changes: R8Q M46I R57G, study 133)
fold change of IC50 against reference virus [2]: 5

HIV-1 isolate 1637 (protease changes: L10I I15V R41K K43T M46L F53L I54V L63P A71V I72T V82A L90M I93L, study 68)
fold change of IC50 against reference virus [1]: 24 | fold change of IC50 against reference virus [2]: 30

Source: the supplement of paper PMC3578754
